Anti-infective test results gathered from many reports (values: NIAID ChemDB through PubChem).

Common to all: whole-cell or culture tests; agent: Hepatitis C virus

Conditions beyond the fields shown may differ between rows.

smiles	mutations	strain or isolate	read by	read-out	cell line	value
CCOC(=O)CN(CC(N)=O)C(=O)CCN1C(=O)[C@H](C)C2CC[C@H](C)C3CC[C@]4(C)OO[C@]32C1O4			replicon	EC50	Huh 5-2	4 µM
Nc1nc(=O)c2ncn(COCCO)c2c(=O)[nH]1			cytopathic effect	EC50	HepG2.2.15	>500 µM
C[C@H]1CCC2[C@@H](C)C(=O)N(CCC(=O)N(CC(=O)NC3CCCCC3)C(C)(C)C)C3O[C@]4(C)CCC1[C@@]23OO4			replicon	EC50	Huh 5-2	6 µM
COC(=O)N[C@H](C(=O)N1CCC[C@H]1c1ncc(-c2ccc(-c3ccc(-c4cnc([C@@H]5CCCN5C(=O)[C@@H](NC(=O)OC)C(C)C)[nH]4)cc3)cc2)[nH]1)C(C)C	P89L K583E	GT3a	luciferase	EC50	1C	0.00059 µM
NC(=O)c1nn(Cc2cccc(NC(=O)c3cccnc3)c2)c2ccccc12		J399EM	fluorescence	EC50	Huh7.5.1	0.267 µM
C[C@H]1CCC2[C@@H](C)C(=O)N(CCC(=O)N(CC(=O)NC(C)(C)CC(C)(C)C)C(C)(C)C)C3OC4(C)CCC1[C@@]23OO4			replicon	EC50	Huh 5-2	7 µM
CCNC1(C(N)=O)CCNCC1		JFH-1	luciferase	EC50	Huh7	>10 µM
CC1(C)C=Cc2c(ccc3c2OC[C@@H](c2ccc(O)cc2O)C3)O1		2a	microscopy / fluorescence	EC50	Huh7.5	6.2 µg/mL
O=C1Nc2nc[nH]c2C(=O)N(Cc2ccccc2)N1			cytopathic effect	EC50	HepG2.2.15	>500 µM
CN(C)CCN(C)[C@H]1COc2ccccc2-c2c(C3CCCCC3)c3ccc(C(=O)O)cc3n2C1		GT1b	luciferase	EC50	1C	0.554 µM
NC(=O)c1nn(Cc2ccccc2N)c2ccccc12		J399EM	fluorescence	EC50	Huh7.5.1	>10 µM
N#Cc1c(-c2ccc(Cl)cc2)nc(SCc2nc3ccccc3[nH]2)[nH]c1=O			replicon / PCR	EC50	Huh7	0.312 µM
CC[C@@H]1C[C@]1(NC(=O)[C@@H]1C[C@@H](Oc2cc(-c3csc(NC(C)C)n3)nc3c(Cl)c(OCCN4CCOCC4)ccc23)CN1C(=O)[C@@H](NC(=O)OC1C[C@@H]2C[C@@H]2C1)C(C)(C)C)C(=O)O		GT1b	luciferase	EC50	1C	0.009 µM
C[C@]1(C(=O)O)CC[C@]2(C)CC[C@]3(C)C(=CC(=O)[C@@H]4[C@@]5(C)CC[C@H](O[C@H]6O[C@H](C(=O)O)[C@@H](O)[C@H](O)[C@H]6O[C@@H]6O[C@H](C(=O)O)[C@@H](O)[C@H](O)[C@H]6O)[C@](C)(CO)[C@@H]5CC[C@]43C)[C@@H]2C1		2a	microscopy / fluorescence	EC50	Huh7.5	>30 µg/mL
NC(=O)c1ncn([C@@H]2O[C@H](CO)[C@@H](O)[C@H]2O)n1			luciferase	EC50	Huh 5-2	>33 µM
O=C(O)c1c(-c2ccc(O)cc2)nc(NCc2nc3ccccc3[nH]2)[nH]c1=O			replicon / PCR	EC90	Huh7	0.987 µM
CC1(C)[C@@H](O[C@H]2O[C@H](C(=O)O)[C@@H](O)[C@H](O)[C@H]2O[C@@H]2O[C@H](C(=O)O)[C@@H](O)[C@H](O)[C@H]2O)CC[C@]2(C)[C@H]3C(=O)C=C4[C@@H]5C[C@@](C)(C(=O)O)CC[C@]5(C)CC[C@@]4(C)[C@]3(C)CC[C@@H]12		2a	microscopy / fluorescence	EC50	Huh7.5	320 µg/mL
Cc1ccc(S(=O)(=O)CNC(=O)CN(C(=O)CCN2C(=O)[C@H](C)C3CC[C@H](C)C4CC[C@]5(C)OO[C@]43C2O5)C(C)(C)C)cc1			replicon	EC50	Huh 5-2	6 µM
CC(C)(C)Oc1cccc2nc(N)nc(N)c12		JFH-1	luciferase / replicon	EC50	Huh7.5.1	0.73 µM
CC1CCC(C(=O)N(c2cc(C#CC(C)(C)C)sc2C(=O)O)C2CCC(O)CC2)CC1		GT2b	luciferase	EC50	Huh7-Lunet	>50 µM
CC[C@H]1C[C@]1(NC(=O)[C@@H]1C[C@@H]2CN1C(=O)[C@H](C(C)(C)C)NC(=O)OCC(C)(C)CCCCc1cccc3c1CN(C3)C(=O)O2)C(=O)NS(=O)(=O)C1CC1		K3a/650	antigen	EC50	Huh7.5	2.275 µM
Fc1cccc(-c2nc3ccn(Cc4cc(-c5ccc(Cl)cc5)no4)cc-3n2)c1F			luciferase	EC50	Huh 5-2	>19 µM
O=C(O)c1cc2c(s1)c(C1CCCCC1)c(-c1ccccc1)n2CCN1CCCC1				EC50	Huh7	3.5 µM
C[C@@]1(O)[C@H](O)[C@@H](CO)O[C@H]1n1cnc2c(N)ncnc21		2a JFH-1	luciferase	EC50	Huh7 replicon	0.27 µM
CC(C)n1c(/C=C/[C@@H](O)C[C@@H](O)CC(=O)O)c(-c2ccc(F)cc2)c2ccccc21			luciferase / replicon	EC50	Huh 5-2	1.8 µM
CC(C)OC(=O)[C@H](C)N[P@](=O)(OC[C@H]1O[C@@](C#N)(c2ccc3c(N)ncnn23)[C@](C)(O)[C@@H]1OC(=O)C(C)C)Oc1ccccc1		6a HK	luciferase	EC50	Huh7 replicon	0.11 µM
COCn1c(-c2ccccc2)c(C2CCCCC2)c2sc(C(=O)O)c(CNCc3ccccc3)c21				EC50	Huh7	1.3 µM
CCCCN(CC(=O)NCS(=O)(=O)c1ccc(C)cc1)C(=O)CCN1C(=O)[C@H](C)C2CC[C@H](C)C3CC[C@]4(C)OO[C@]32C1O4			replicon	EC50	Huh 5-2	>70 µM
C[C@]12CC[C@H]3c4ccc(OCC(=O)O)cc4CC[C@@H]3[C@H]1CCC2=O		JFH-1	luciferase	EC50	Huh7	>10 µM
CCC[C@H](NC(=O)[C@@H]1[C@H]2CCC[C@H]2CN1C(=O)[C@@H](NC(=O)[C@@H](NC(=O)c1cnccn1)C1CCCCC1)C(C)(C)C)C(=O)C(=O)NC1CC1	P89L K583E	GT3a	luciferase	EC50	1C	2.217 µM
C=CC(=O)NCC(=O)N1C[C@H](Oc2nccc3ccc(Br)cc23)C[C@H]1C(=O)N[C@]1(C(=O)NS(=O)(=O)C2CC2)C[C@H]1C=C		1b A156S	luciferase	EC50		0.042 µM
COc1cc([C@@H]2Oc3cc([C@H]4Oc5cc(O)cc(O)c5C(=O)[C@@H]4O)ccc3O[C@H]2CO)ccc1O		1b		EC50		80 µM
ClCc1nc2ccccc2[nH]1			replicon / PCR	EC90	Huh7	0.65 µM
Nc1ncnc2c1ncn2[C@@H]1O[C@H](CO)C[C@H]1O			luciferase	EC50		~100 µM
NC(=O)/C(=C\c1ccncc1)c1cccc2ccccc12		JFH-1	luciferase	EC50	Huh7	>10 µM
CC(=N/O)/C(C)=N/O		sg1b	PCR	EC50	Huh7-1	3.82 µM
NC(=O)c1nn(Cc2cccc(NC(=O)c3ccco3)c2)c2ccccc12		J399EM	fluorescence	EC50	Huh7.5.1	0.674 µM
CCN(CC(=O)NCc1ccccc1)C(=O)CCN1C(=O)[C@H](C)C2CC[C@H](C)C3CC[C@]4(C)OO[C@]32C1O4		JFH-1/CS-N6	PCR	EC50	Huh7.5.1	31 µM
C[C@@]1(O)[C@H](O)[C@@H](CO)O[C@H]1n1cnc2c(N)ncnc21			cytopathic effect	EC50	Con-1	0.3031 µM
CCC[C@H](NC(=O)[C@@H]1[C@H]2CCC[C@H]2CN1C(=O)[C@@H](NC(=O)[C@@H](NC(=O)c1cnccn1)C1CCCCC1)C(C)(C)C)C(=O)C(=O)NC1CC1		K3a/650	antigen	EC50	Huh7.5	29.4 µM
CC(C)CN(CC(=O)NC1CCCCC1)C(=O)CCN1C(=O)[C@H](C)C2CC[C@H](C)C3CC[C@]4(C)OO[C@]32C1O4			replicon	EC50	Huh 5-2	4 µM
CCC[C@H](NC(=O)[C@@H]1[C@H]2CCC[C@H]2CN1C(=O)[C@@H](NC(=O)[C@@H](NC(=O)c1cnccn1)C1CCCCC1)C(C)(C)C)C(=O)C(=O)NC1CC1		J399EM	GFP / fluorescence	EC50	Huh7.5.1	0.528 µM
CSc1ccc2c(c1)C(N1CCN(C)CC1)Cc1ccccc1S2		JFH-1	luciferase	EC50	Huh7	3.95 µM
CC(=O)O[C@@H]1[C@H](OC(C)=O)[C@@H](OC(C)=O)C=C2c3cc4c(cc3C(=O)N[C@H]21)OCO4		Synthesized HCV RNA	antigen / microscopy	EC50	Huh7.5	>0.98 µM
O=C1OC2(c3ccc(O)cc3Oc3cc(O)ccc32)c2c1c(-c1ccccc1)c(-c1ccccc1)c(-c1ccccc1)c2-c1ccccc1		sg1a (H77)	PCR	EC50	Huh7-1	6.9 µM
NC(=O)c1nn(Cc2cccc(NC(=O)c3ccc([N+](=O)[O-])cc3)c2)c2ccccc12		J399EM	fluorescence	EC50	Huh7.5.1	0.007 µM
CCCCN(CC(=O)NC(C)(C)CC(C)C)C(=O)CCN1C(=O)[C@H](C)C2CC[C@H](C)C3CCC4(C)OO[C@]32C1O4			replicon	EC50	Huh 5-2	5 µM
CNC(=O)c1c(-c2ccc(F)cc2)oc2cc(N(CCO)S(C)(=O)=O)c(C3CC3)cc12			luciferase	EC50	Huh 5-2	>33 µM
CCN(CC)CCN1C(=O)c2cccc3cc(N)cc(c23)C1=O		JFH-1	PCR	EC50	Huh7-1	16.4 µM
Cc1ccc([N+](=O)[O-])cc1NC(=O)Nc1onc(C)c1C		JFH-1	luciferase	EC50	Huh7	>10 µM
CC(C)N1CCC(N(C)C(=O)Cn2c(-c3ccc(Cl)cc3)c(C3CCCCC3)c3sc(C(=O)O)cc32)C1				EC50	Huh7	0.52 µM
Nc1nc2c(ncn2[C@@H]2O[C@H](CO)C[C@H]2O)c(=O)[nH]1			luciferase	EC50		>150 µM
O=C(O)c1cccc([As]=[As]c2cccc(C(=O)O)c2)c1		JFH-1	PCR	EC50	Huh7-1	2.6 µM
NC(=O)c1ncn([C@@H]2O[C@H](CO)[C@@H](O)[C@H]2O)n1		J399EM	GFP / fluorescence	EC50	Huh7.5.1	>10 µM
CCN(CC)CCCC(C)Nc1ccnc2cc(Cl)ccc12			MTT	MIC		50 µM
CC1(C)[C@@H](O[C@@H]2O[C@H](C(=O)O)[C@@H](O)[C@H](O)[C@H]2O)CC[C@]2(C)[C@H]3C(=O)C=C4[C@@H]5C[C@@](C)(C(=O)O)CC[C@]5(C)CC[C@@]4(C)[C@]3(C)CC[C@@H]12		2a	microscopy / fluorescence	EC50	Huh7.5	>30 µg/mL
CNC(=O)c1c(-c2ccc(F)cc2)oc2cc(N(CCO)S(C)(=O)=O)c(C3CC3)cc12		GT1b	luciferase	EC50	1C	0.023 µM
C[C@@]1(O)[C@H](O)[C@@H](CO)O[C@H]1n1cnc2c(N)ncnc21		GT-1b Con1	luciferase	EC50	Huh7-Lunet	0.561 µM
CN(C)Cc1c(C(=O)O)sc2c(C3CCCCC3)c(-c3ccc(Cl)cc3)n(C)c12				EC50	Huh7	1.2 µM
CC1=CC[C@H](C(=O)N(c2cc(C#CC(C)(C)C)sc2C(=O)O)C2CCC(O)(CO[C@H]3CCOC3)CC2)CC1	P89L K583E	GT3a	luciferase	EC50	1C	0.221 µM
C[C@@]1(O)[C@H](O)[C@@H](CO)O[C@H]1n1cnc2c(N)ncnc21	Y93H+V153M+M202L+M265V	genotype 1b	luciferase / reporter gene	EC50	Huh7.5	0.0241 µM
O=C1Nc2ncn(Cc3ccccc3)c2C(=O)N(Cc2ccccc2)N1			cytopathic effect	EC50	HepG2.2.15	>500 µM
COc1cc(C2C3CO[C@]4(O)C[C@H]2C=C([C@H]2Oc5cc(O)cc(O)c5C(=O)[C@@H]2O)[C@H]34)ccc1O		1b		EC50		>100 µM
C[C@H](Br)C(=O)c1ccc2cc(Br)c3ccccc3c2c1		sg2a (JFH)	PCR	EC50	Huh7-1	12.2 µM
Nc1nc(=O)c2[nH]cnc2c(=O)[nH]1			cytopathic effect	EC50	HepG2.2.15	>500 µM

A second listing of 7 rows from above:

smiles,mutations,strain or isolate,read by,read-out,cell line,value
CNC(=O)c1c(-c2ccc(F)cc2)oc2cc(N(CCO)S(C)(=O)=O)c(C3CC3)cc12,,,luciferase,EC50,Huh 5-2,>33 µM
CCC[C@H](NC(=O)[C@@H]1[C@H]2CCC[C@H]2CN1C(=O)[C@@H](NC(=O)[C@@H](NC(=O)c1cnccn1)C1CCCCC1)C(C)(C)C)C(=O)C(=O)NC1CC1,,K3a/650,antigen,EC50,Huh7.5,29.4 µM
NC(=O)/C(=C\c1ccncc1)c1cccc2ccccc12,,JFH-1,luciferase,EC50,Huh7,>10 µM
CNC(=O)c1c(-c2ccc(F)cc2)oc2cc(N(CCO)S(C)(=O)=O)c(C3CC3)cc12,,GT1b,luciferase,EC50,1C,0.023 µM
CCN(CC)CCN1C(=O)c2cccc3cc(N)cc(c23)C1=O,,JFH-1,PCR,EC50,Huh7-1,16.4 µM
C[C@@]1(O)[C@H](O)[C@@H](CO)O[C@H]1n1cnc2c(N)ncnc21,Y93H+V153M+M202L+M265V,genotype 1b,luciferase / reporter gene,EC50,Huh7.5,0.0241 µM
C[C@]12CC[C@H]3c4ccc(OCC(=O)O)cc4CC[C@@H]3[C@H]1CCC2=O,,JFH-1,luciferase,EC50,Huh7,>10 µM

An empty or dashed field is not shown. ECn is the concentration giving n% inhibition of infection, replication or growth.